Anti-infective test results gathered from many reports (values: NIAID ChemDB through PubChem).

Shared fields: growth or infection tests; organism: Mycobacterium avium complex; read-out: MIC50

An empty or dashed field is not shown. A number after MIC or MFC names an inhibition level or a share of isolates. Lines come from different laboratories, so protocols vary.

compound | strain | value
Cc1cc2nc3c(=O)[nH]c(=O)nc-3n(C[C@H](O)[C@H](O)[C@H](O)CO)c2cc1C | 32 isolates | 64 µg/mL
CCNC(C)C1CCN(c2c(F)cc3c(=O)c(C(=O)O)cn(C4CC4)c3c2OC)C1 |  | 4 µg/mL
CCN1CCN(c2cc3c(cc2F)c(=O)c(C(=O)O)cn3C(C)(C)C)CC1 | 14 strains | 0.5 µg/mL
CCC1CCN(c2c(F)cc3c(=O)c(C(=O)O)cn(C4CC4)c3c2F)C1 |  | 2 µg/mL
CO[C@H]1/C=C/O[C@@]2(C)Oc3c(C)c(O)c4c(O)c(c5c(c4c3C2=O)NC2(CCN(CC(C)C)CC2)N=5)=NC(=O)/C(C)=C\C=C\[C@H](C)[C@H](O)[C@@H](C)[C@@H](O)[C@@H](C)[C@H](OC(C)=O)[C@@H]1C | 52 isolates | 0.39 µg/mL
NCC1CCN(c2c(F)cc3c(=O)c(C(=O)O)cn(C4CC4)c3c2F)C1 |  | 2 µg/mL
CC(C)(C)n1cc(C(=O)O)c(=O)c2cc(F)c(N3CCNCC3)cc21 | 14 strains | 2 µg/mL
CO[C@H]1/C=C/O[C@@]2(C)Oc3c(C)c(O)c4c(O)c(c5c(c4c3C2=O)NC2(CCN(CC(C)C)CC2)N=5)=NC(=O)/C(C)=C\C=C\[C@H](C)[C@H](O)[C@@H](C)[C@@H](O)[C@@H](C)[C@H](OC(C)=O)[C@@H]1C | 32 isolates | 1 µg/mL
O=C(O)c1cn(C2CC2)c2c(F)c(N3CCN4CCC3C4)c(F)cc2c1=O |  | 2 µg/mL
CO[C@H]1/C=C/O[C@@]2(C)Oc3c(C)c(O)c4c(O)c(c(/C=N/N5CCN(C)CC5)c(O)c4c3C2=O)NC(=O)/C(C)=C\C=C\[C@H](C)[C@H](O)[C@@H](C)[C@@H](O)[C@@H](C)[C@H](OC(C)=O)[C@@H]1C |  | >1 µg/mL
CC1CN(c2c(F)cc3c(=O)c(C(=O)O)cn(C4CC4)c3c2F)CC(C)N1 |  | 1 µg/mL
CCCCOP(=O)(OCCCC)OCCCC | 32 isolates | >128 µg/mL
CC1CN(c2c(F)cc3c(=O)c(C(=O)O)cn(C4CC4)c3c2F)CCN1 |  | 1 µg/mL
NNC(=O)c1ccncc1 |  | >1 µg/mL
CNCC1CCN(c2c(F)cc3c(=O)c(C(=O)O)cn(C4CC4)c3c2Br)C1 | 14 strains | ≥32 µg/mL
O=C(O)c1cn(C2CC2)c2cc(N3CCNCC3)c(F)cc2c1=O | 32 isolates | 4 µg/mL
CCNCC1CCN(c2c(F)cc3c(=O)c(C(=O)O)cn(C4(C)CC4)c3c2F)C1 | 14 strains | 8 µg/mL
NC[C@H]1O[C@H](O[C@H]2[C@H](O)[C@@H](O[C@H]3O[C@H](CO)[C@@H](O)[C@H](N)[C@H]3O)[C@H](N)C[C@@H]2N)[C@H](O)[C@@H](O)[C@@H]1O |  | <1.3 µg/mL

The first 2 rows once more:

compound	strain	value
Cc1cc2nc3c(=O)[nH]c(=O)nc-3n(C[C@H](O)[C@H](O)[C@H](O)CO)c2cc1C	32 isolates	64 µg/mL
CCNC(C)C1CCN(c2c(F)cc3c(=O)c(C(=O)O)cn(C4CC4)c3c2OC)C1		4 µg/mL